Data reported in EP2450379B1 (Crucell Holland B.V., dated 2015).

B1: CR6268 (antibody, V domains shown)
VH: QVQLVQSGAEVKKPGSSVKVSCKASGGTFSSYAISWVRQAPGQGLEWMGGIMGMFGTTNYAQKFQGRVTITADEFTSAAYMELRSLRSEDTAVYYCARSSGYYPEYFQDWGQGTLVTVSS
VL: QSVLTQPPSESVSPGQTASVTCSGHKLGDKYVSWYQQKPGQSPVLLIYQDNRRPSGIPERFIGSNSGNTATLTISGTQALDEADYYCQAWDSSTAVFGGGTKLTVLG
notes: human IgG1
B2: CR6336 (antibody, V domains shown)
VH: QMQLVQSGAEVKKPGSSVKVSCKASGGTFSSYAISWVRQAPGQGLEWMGGIFGMFGTANYAQKFQGRVTITADEFTSAAYMELSSLGSEDTAMYYCARSSGYYPQYFQDWGQGTLVTVSS
VL: EIVMTQSPGTLSLSPGQRATLSCRASQSVSSSYLAWYQQKPGQAPRLLMYGASSRATGIPDRFSGSGSGTDFTLTISRLEPEDFAVYYCQQYGSSSLTFGGGTKLEIKR
notes: human IgG1
B3: CR6334 (antibody, V domains shown)
VH: EVQLVETGAEVKKPGSSVKVPCKSSGSPFRSNAVSWVRQAPGQGLEWVGGILGVFGSPSYAQKFQGRVTITADESTNTVHMELRGLRSEDTAVYYCARGPTYYYSYMDVWGKGTTVTVSS
VL: SYVLTQPPSESVAPGQTARITCGGNNIGRNSVHWYQQKPGQAPVLVVYDDSDRPSGIPERFSGSKSGNTATLIISRVEVGDEADYYCQVWHSSSDHYVFGTGTKVTVLG
notes: human IgG1
B4: CR6343 (antibody, V domains shown)
VH: QVQLVQSGAEVKKPGSSVKVSCKASGVTFSYYAMSWVRQAPGQGLEWMGGISPMFGTTTYAQKFQGRVTITADDSTSTAYMEVRSLRSEDTAVYYCARSSNYYDSVYDYWGQGTLVTVSS
VL: QSVVTQPPSESVAPGQTARITCGGHNIGSNSVHWYQQKPGQAPVLVVYDNSDRPSGIPERFSGSNSGNTATLTISRVEAGDEADYYCQVWGSSSDHYVFGTGTKVTVLG
notes: human IgG1
B5: CR6307 (antibody, V domains shown)
VH: QVQLVQSGGGLVKPGGSLRLSCAASGFTFSSYSMNWVRQAPGKGLEWVSSISSSSSYIYYVDSVKGRFTISRDNAKNSLYLQMNSLRAEDTAVYYCARGGGSYGAYEGFDYWGQGTLVTVSS
VL: EIVLTQSPGTLSLSPGERATLSCRASQRVSSYLAWYQQKPGQAPRLLIYGASTRAAGIPDRFSGSGSGTDFTLTISRLEPEDSAVYYCQQYGRTPLTFGGGTKVEIKR
notes: human IgG1
B6: CR6344 (antibody, V domains shown)
VH: QVQLVQSGAEVKKPGSSVRVSCKASGSIFRNYAMSWVRQAPGQGLEWMGGIIAIFGTPKYAQKFQGRVTITADESTSTVYMELSGLRSEDTAMYYCARIPHYNFGSGSYFDYWGQGTLVTVSS
VL: TVLTQPPSVSGAPGQRVTISCTGSSSNIGAGYDVHWYQQLPGTAPKLLIYGNSNRPSGVPDRFSGSKSGTSATLGITGLQTGDEADYYCGTWDSSLSAYVFGTGTKVTVLG
notes: human IgG1
B7: CR6262 (antibody, V domains shown)
VH: QVQLQQSGAEVKKPGSSVKVSCKVSGVIFSGSAISWVRQAPGQGLEWMGGISPLFGTTNYAQKFQGRVTITADQSTNTTYMEVNSLRYEDTAVYFCARGPKYYSEYMDVWGKGTTVTVSS
VL: DIQMTQSPSSLSASVGDRVTITCRASQGISSYLAWYQQKPGKVPTLLIYDASTLRSGVPSRFSGSGSATDFTLTISSLQPEDVATYYCQRYNSAPPITFGQGTRLEIKR
notes: human IgG1
B8: CR6332 (antibody, V domains shown)
VH: QVQLVQSGAEVKKPGSSVKVSCKASGGPFRNFAINWVRQAPGQGLEWMGGIIAVFGTTKYAHKFQGRVTITADDSTNTAYMELGSLKSEDTAVYYCARGPHYYSSYMDVWGEGTTVTVSS
VL: DIQLTQSPSSLSASVGDRVTITCRASQGISTYLAWYQQKPGKVPKLLIYAASTLQSGVPSRFSGSGSGTDFTLTISSLQPEDVATYYCQKYNSAPSFGPGTKVDIKR
notes: human IgG1
B9: CR6272 (antibody, V domains shown)
VH: QMQLVQSGAEVKKPGSSVKVSCKASGGTFSSYAITWVRQAPGQGLEWMGGIIGMFGSTNYAQNFQGRVTITADESTSTAYMELSSLRSEDTAVYYCARSTGYYPAYLHHWGQGTLVTVSS
VL: QSALTQPRSVSGSPGQSVTISCTGTSSDVGGYNYVSWYQQHPGKAPKLMIYDVSKRPSGVPDRFSGSKSGNTASLTISGLQAEDEADYYCSSYTSSSTHVFGTGTKVTVLG
notes: human IgG1
B10: CR6325 (antibody, V domains shown)
VH: EVQLVESGAEVKKPGSSVKVSCKASGGTFSFYSMSWVRQAPGQGLEWMGGIIPMFGTTNYAQKFQGRVTITAVESTSTAYMEVSSLRSEDTAVYYCARGDKGIYYYYMDVWGKGTTVTVSS
VL: QSALTQPASVSGSPGQSITISCTGTSSDVGGYNYVSWYQQHPGKAPKLMIYEVSNRPSGVSNRFSGSKSGNTASLTISGLQAEDEADYYCSSYTSSSTLVFGTGTKVTVLG
notes: human IgG1
B11: CR6257 (antibody, V domains shown)
VH: QVQLVQSGAEVKKPGSSVKVSCKASGGPFRSYAISWVRQAPGQGPEWMGGIIPIFGTTKYAPKFQGRVTITADDFAGTVYMELSSLRSEDTAMYYCAKHMGYQVRETMDVWGKGTTVTVSS
VL: QSALTQPAAVSGSPGQSITISCTGTSSDVGGYNYVSWYQQHPGKAPKLMIYEVSNRPSGVSNRFSGSKSGNTASLTISGLQAEDEADYYCSSYTSSSTYVFGTGTKVTVLG
notes: human IgG1
B12: CR6342 (antibody, V domains shown)
VH: QVQLVQSGAEVKKPGSSVKVSCKASGGFFSSYAISWVRQAPGQGLEWMGGVIPIFRTANYAQNFQGRVTITADEFTSYMELSSLRSDDTAVYYCARLNYHDSGTYYNAPRGWFDPWGQGTLVTVSS
VL: DIQMTQSPDSLAVSLGEKATINCKSSQSILNSSNNKNYLAWYQQKPGQPPKLLIYWASTRESGVPDRFSGSGSGTDFTLTISSLQAEDVAVYYCQQYYSSPPTFGQGTKVEIKR
notes: human IgG1
B13: CR6329 (antibody, V domains shown)
VH: EVQLVQSGAEVKKPGSSVKVSCKASGGIFRSNSISWVRQAPGQGLEWMGGIFALFGTTDYAQKFQGRVTITADESSTTVYLELSSLTSEDTAVYYCARGSGYTTRNYFDYWGQGTLVTVSS
VL: EIVLTQSPGTLSLSPGERATLSCRASQSVSSNYLGWYQQKPGQAPRLLIYGASSRASGIPDRFSGGGSGTDFTLTISRLEPEDFAVYYCQQYGSSPLTFGGGTKVEIKR
notes: human IgG1

These binders were tested against HA in BPL-inactivated virus preparation of A/New Caledonia/20/99 (H1N1) (influenza A virus A/New Caledonia/20/99 …) (assay: ELISA, IgG 5 µg/ml).

Compared with B1, B2 is lower in “OD 492nm” value: 1.39 OD 492nm for the first, 1.09 OD 492nm for the second.

Compared with B3, B4 is lower in “OD 492nm” value: 1.13 OD 492nm for the first, 0.91 OD 492nm for the second.

Compared with B5, B6 is higher in “OD 492nm” value: 0.23 OD 492nm for the first, 1.31 OD 492nm for the second.

Compared with B7, B8 is higher in “OD 492nm” value: 0.51 OD 492nm for the first, 1.2 OD 492nm for the second.

First: B9
Second: B10
The “OD 492nm” value of the first is lower: 0.92 OD 492nm for the first, 1.09 OD 492nm for the second.

Going from B11 to B12, the “OD 492nm” value falls from 1.34 OD 492nm to 1.32 OD 492nm.

B13 was tested, and the “OD 492nm” value was 1.04 OD 492nm.
